Test results from US20180318311A1, “TRICYCLIC 2-QUINOLINONES AS ANTIBACTERIALS” (priority 2017, published 2018).
Converted amounts (≈) assume the structure as drawn.

System: S. aureus NB01006-AVR005, gyrA (S84L), grlA (580F) and grlB (E471K)
Assay: microbe, parasite or virus in culture
Assay type: cell-based
Conditions: Staphylococcus aureus, 20 h, read-out: Antibacterial activity (MIC) NB01006-AVR005

C[C@H]1COc2c(N3CC[C@@H](C4(N)CC4)C3)ccc3cc(C(=O)O)c(=O)n1c23 [Example 12.3, (S)-10-((R)-3-(1-aminocyclopropyl)pyrrolidin-1-yl)-3-methyl-5-oxo-2,3-dihydro-5H-[1,4]oxazino[2,3,4-ij]quinoline-6-carboxylic acid]
MIC: 1 to 32 µg/mL (≈ 2.71 to 86.6 µM)
